PubChem BioAssay AID504761 – Drosophila RNAi Screening Center, 2011
Assay: 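Insect host genes that dengue virus relies on to spread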 (primary screen). Cell system: D.Mel-2 cells from Drosophila. Reagent: long dsRNA against Drosophila genes. Treatment: infection with dengue virus type 2; dose and infection time not stated. Measurement: 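Per well on two replicate plates, imaging gave the percent of cells positive for viral envelope protein, ranked by infection, and a nuclear count of cells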. Direction: infection score: higher = more virus-infected cells; cell count: higher = more cells in the well. Call rule: 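Very low infection ranking in both replicate wells (chance probability at most 0.065), then a retest showing infection dropped 1.5-fold or more at p below 0.05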. Meaning of the calls: active = confirmed: knock-down lowers infection; inactive = not picked or not confirmed.
In all, the deposit lists about 22,000 reagents; below is a random part of those with a known target gene and a result. In the full data, 116 (0.52%) got an active call. 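Calls depend on retest data that are not deposited; infection was ranked per plate without normalising between plates; the unit of the infection score is not given.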 The raw values are shown without normalisation. Unmarked entries are inactive. A plus sign joins genes that one reagent is predicted to hit. Not given: the amount of reagent, the time to read-out.

gene	amplicon	infection score, replicate 1	infection score, replicate 2	cell count, replicate 1	cell count, replicate 2
CG31386 (retired record) (GeneID 318706)	DRSC23186	0.4	6.94	6191	6961
CG31386 (retired record) (GeneID 318706)	DRSC25849	1.01	3.72	6346	5733
CG34427 (GeneID 5740165)	DRSC09978	4.15	1.43	6097	6799
Acp65Aa (GeneID 38710)	DRSC09663	3.55	2.55	5883	6038
Acp65Aa (GeneID 38710)	DRSC26708	4.14	1.04	6187	6135
CG33462 (GeneID 2768841)	DRSC22902	1.63		6767	411
Bet5 (GeneID 43590)	DRSC14600	4.18	1.78	981	6446
CG30356 (GeneID 246562)	DRSC05119	2.63	2.54	6350	5788
CG13775 (GeneID 33975)	DRSC02279	2.55	14.1	6431	6171
CG13775 (GeneID 33975)	DRSC29121	7.47		1460	275
fipi (GeneID 33676)	DRSC00465	6.51	3.86	6102	6398
fipi (GeneID 33676)	DRSC25365	5.59	8.6	6477	6139
Cpr78E (GeneID 40408)	DRSC11807	1.79	4.71	6161	6269
Taf2 (GeneID 39164)	DRSC11298	12.4	8.19	4801	5626
Taf2 (GeneID 39164)	DRSC26215	22.6	12.8	4900	4949
Cyp4d20 (GeneID 38311)	DRSC08654	2.33	8.09	6579	6750
Cyp4d20 (GeneID 38311)	DRSC25418	0.57	7.34	6273	5611
cac (GeneID 32158)	DRSC19743	3.12	5.99	6212	6298
cac (GeneID 32158)	DRSC20354	0.73	4.27	6599	6599
pths (GeneID 35379)	DRSC03171	14.8	7.2	2444	1444
Mul1 (GeneID 38472)	DRSC08174	1.08	2.05	6368	6063
Mul1 (GeneID 38472)	DRSC25694	3.66	6.17	5706	5912
CG14984 (GeneID 38467)	DRSC08442	4.13	0.82	6709	6212
CG14984 (GeneID 38467)	DRSC27683	23.7	6.75	5872	6488
CG13056 (GeneID 50267)	DRSC09937	3.06	3.05	5721	6140
CG13056 (GeneID 50267)	DRSC29419	5.76	17.6	3263	3561
Lerp (GeneID 43223)	DRSC14750	0.89	1.55	676	1094
Lerp (GeneID 43223)	DRSC14751	13	9.83	3934	3020
Lerp (GeneID 43223)	DRSC16030	10	16.8	5370	5510
Lerp (GeneID 43223)	DRSC16031	4.69	3.7	4943	3540
Nipsnap (GeneID 32573)	DRSC20169	2.08	7.51	6523	6581
Sirt4 (GeneID 31480)	DRSC18290	7.95	7.85	6198	6430
Sirt4 (GeneID 31480)	DRSC27472	9.99	21.5	6449	6144
pod1 (GeneID 31620)	DRSC18362	7.32	3.75	6752	6584
pod1 (GeneID 31620)	DRSC23544	1.79	5.54	5925	5761
Ada2a (GeneID 326128)	DRSC16206	1.78	7.01	6693	6875
Ada2a (GeneID 326128)	DRSC21598	39	25.5	6672	3869
Or13a (GeneID 32562)	DRSC20265	11.8	1.83	5107	6540
CG1671 (GeneID 36019)	DRSC06617	6.04	13.1	5381	6130
XNP (GeneID 43080)	DRSC15594	2.3	1.65	6491	6305
XNP (GeneID 43080)	DRSC27285	19.3	29.1	5150	4689
CG13901 (GeneID 38095)	DRSC08371	7.48	13.4	6977	5611
T3dh (GeneID 37551)	DRSC28231	13.3	7.48	5444	4344
CG7448 (retired record) (GeneID 40440)	DRSC11828	1.94	9.74	6756	6260
CG7448 (retired record) (GeneID 40440)	DRSC22485	3.09		5897	374
PIG-C (GeneID 38410)	DRSC08241	1.84	3.65	6366	6145
hfw (GeneID 31120)	DRSC18506	9.93		4813	321
hfw (GeneID 31120)	DRSC25958	7.18	4.49	6462	6212
Eogt (GeneID 33424)	DRSC00727	6.72	3.36	6251	5951
Eogt (GeneID 33424)	DRSC26180	26.4	5.19	5624	6378
Exo70 (GeneID 38959)	DRSC10774	2.59	3.29	5635	6295
hbn (GeneID 47894)	DRSC04238	4.84	4.55	6486	6596
hbn (GeneID 47894)	DRSC04239	25.5	13.1	5864	4765
hbn (GeneID 47894)	DRSC22436	1.97	1.89	7109	7237
CG31760 (GeneID 34642)	DRSC02590	1.72	1.31	6684	6886
CG31760 (GeneID 34642)	DRSC27108	32.1	5.62	4665	6171
Syx6 (GeneID 40373)	DRSC07032	21.8	7.52	3852	6358
Syx6 (GeneID 40373)	DRSC25244	1.58	0.81	6726	6694
Ptpmeg2 (GeneID 31907)	DRSC18277	4.08	2.77	6200	6207
Ptpmeg2 (GeneID 31907)	DRSC18278	2.65	3.89	5764	5960
Ptpmeg2 (GeneID 31907)	DRSC23303	2.1	3.35	6038	6306
Ptpmeg2 (GeneID 31907)	DRSC26646	12.8	16	6266	6233
CG14883 (GeneID 41997)	DRSC15007	2.16	5.4	6530	6309
Abp1 (GeneID 39520)	DRSC09693	0.44	1.13	6837	6367
CG30259 (GeneID 37606)	DRSC04164	12.1	16.5	6901	6515
CG30259 (GeneID 37606)	DRSC04165	16.7	20.9	5015	4348
Tim17b2 (GeneID 44381)	DRSC03457	3.6	3.39	6713	6698
Tim17b2 (GeneID 44381)	DRSC28544	10.8	23.1	3049	6428
Ada3 (GeneID 32787)	DRSC20321	7.02	6.28	6154	6098
Ada3 (GeneID 32787)	DRSC20322	7.83	5.22	7085	6585
SkpF + CG5357 (retired record)	DRSC04120	9.98	6.7	6935	6928
RpS5a (GeneID 32700)	DRSC20282	16.5	4.35	5831	5658
CG30056 (GeneID 246422)	DRSC21752	4.37	11.5	6733	5560
pho (GeneID 43819)	DRSC17219	1.14	2.14	6643	6545

Already shown: entries from further up.
gene	amplicon	infection score, replicate 1	infection score, replicate 2	cell count, replicate 1	cell count, replicate 2
Ptpmeg2 (GeneID 31907)	DRSC18277	4.08	2.77	6200	6207
Ptpmeg2 (GeneID 31907)	DRSC18278	2.65	3.89	5764	5960
Ptpmeg2 (GeneID 31907)	DRSC23303	2.1	3.35	6038	6306
Ptpmeg2 (GeneID 31907)	DRSC26646	12.8	16	6266	6233
CG14883 (GeneID 41997)	DRSC15007	2.16	5.4	6530	6309
Abp1 (GeneID 39520)	DRSC09693	0.44	1.13	6837	6367
CG30259 (GeneID 37606)	DRSC04164	12.1	16.5	6901	6515
CG30259 (GeneID 37606)	DRSC04165	16.7	20.9	5015	4348
Tim17b2 (GeneID 44381)	DRSC03457	3.6	3.39	6713	6698
Tim17b2 (GeneID 44381)	DRSC28544	10.8	23.1	3049	6428
